How the values were obtained:
Type in all cases: cell-based
[1] = tested on: HCV Replicon Subtype Genotype 1a
[2] = tested on: HCV Replicon Subtype Genotype 1b
[3] = tested on: HCV Replicon Subtype Genotype 3a; details: concentrations ≥100-fold over its EC50 value; GT3a NS3 protease replicon
[4] = tested on: HCV NS3 and NS5A variants; assay: Susceptibility of HCV variants found in the virologic failure patient, relative to wild-type replicon
Description: One patient experienced virologic failure at treatment week 6.

SMILES | activity against NS5A inhibitor and NS5B inhibitor resistance-associated variants ([1]; M28T, M28V, Q30D, Q30R, Y93C, Y93H, Y93N, L31V+Y93H, C316Y, M414T, Y448C, Y448H, S556G and S559G in GT 1a) | inhibitory activity against NS3 resistance-associated variants ([1]; V36M, R155K, D168A and D168V in GT 1a (H77)) | activity against NS5A inhibitor and NS5B inhibitor resistance-associated variants ([2]; L28T, Y93H, S282T, C316Y, Y448H and S556G in GT 1b) | inhibitory activity against NS3 resistance-associated variants ([2]; T54A, R155K, D168V and V170A in GT 1b (Con-1)) | resistant colony selection [3] | increase in EC50 relative to that of the wild-type replicon [4] [fold]
CC(C)(C)[C@@H]1NC(=O)O[C@@H]2CCC[C@H]2OC/C=C/C(F)(F)c2nc3ccccc3nc2O[C@@H]2C[C@@H](C(=O)N[C@]3(C(=O)NS(=O)(=O)C4(C)CC4)C[C@H]3C(F)F)N(C2)C1=O [Compound 1] | potent activity | nearly equivalent to that against wild-type HCV replicon | potent activity | nearly equivalent to that against wild-type HCV replicon | selected very few colonies | –
COC(=O)N[C@H](C(=O)N1CCC[C@H]1c1nc2cc([C@H]3CC[C@H](c4cc5nc([C@@H]6CCCN6C(=O)[C@@H](NC(=O)OC)[C@@H](C)OC)[nH]c5cc4F)N3c3cc(F)c(N4CCC(c5ccc(F)cc5)CC4)c(F)c3)c(F)cc2[nH]1)[C@@H](C)OC [Compound 2] | – | – | – | – | – | > 5000
